Article PMC4388271 (Acta Crystallographica Section D: Biological Crystallography, 2015)

Biological target: TesB from Yersinia pestis with the Glu18-to-Arg18 mutation (Yersinia pestis)
Assay: SEC; size-exclusion column with a standard curve; 50 mM Tris pH 8.0, 125 mM NaCl

TesB from Yersinia pestis with the Glu18-to-Arg18 mutation (enzyme)
stoichiometry N: 2
